Laboratory results published in ChEMBL document CHEMBL1671710, “Different classes of antibiotics differentially influence shiga toxin production” (2010).

What was measured:
Escherichia coli [1] = details: O157:H7 PT-32
Escherichia coli [2] = details: C600::H19B
Escherichia coli [3] = details: O157:H7 PT-40
Escherichia coli [4] = details: C600::H19B; remark: listed apart in the source

Measured: MIC

GENTAMICIN
0.5 mg/L: Escherichia coli [1] | Escherichia coli [2] | Escherichia coli [3] | Escherichia coli [4]
